A mixed list of measured activities; the numbers were collected in NIAID ChemDB.

ICn: concentration for n% inhibition.

{"smiles": "Cc1cc(-c2ccc(N=Nc3c(S(=O)(=O)O)cc4cc(S(=O)(=O)O)cc(N)c4c3O)c(C)c2)ccc1N=Nc1c(S(=O)(=O)O)cc2cc(S(=O)(=O)O)cc(N)c2c1O", "method": "cytopathic effect", "kind": "culture", "tested at": "5 µg/mL", "species": "Herpes simplex virus", "measure": "inhibition", "cells": "Human amnion AV3 cells", "value": "0%"}
{"smiles": "Oc1ccccc1N=Cc1ccc2c(c1)OCO2", "method": "broth dilution", "kind": "culture", "strain or isolate": "LMM 820", "species": "Cryptococcus neoformans", "measure": "MIC", "value": "4 µg/mL"}
{"smiles": "COc1cccc(-c2cncc(N3CCN(c4cccc(Cl)c4)CC3)n2)c1", "kind": "target", "tested at": "1 µM", "target": "UL97 kinase", "species": "Cytomegalovirus", "measure": "inhibition", "value": "<50%"}
{"smiles": "Oc1ccccc1N=Cc1ccccc1", "kind": "culture", "strain or isolate": "VM-MCMMPI", "species": "Cryptococcus neoformans", "measure": "MIC99", "value": "5.7 µg/mL"}
{"smiles": "O=S(=O)([O-])c1ccc(O)c2ccccc12", "method": "cytopathic effect", "kind": "culture", "tested at": "5 µg/mL", "species": "Herpes simplex virus", "measure": "inhibition", "cells": "Human conjunctiva cells", "value": "0%"}
{"smiles": "CCOC(=O)c1c(C)nc(NCCCNc2ccnc3cc(Cl)ccc23)nc1-c1ccccc1", "kind": "culture", "strain or isolate": "F-10", "species": "Cryptococcus neoformans", "measure": "MIC99", "value": "4 µg/mL"}
{"smiles": "O=C(Nc1cc(S(=O)(=O)O)cc2cc(S(=O)(=O)O)cc(O)c12)c1ccccc1", "method": "cytopathic effect", "kind": "culture", "tested at": "5 µg/mL", "strain or isolate": "TYPE 3", "species": "Adenovirus", "measure": "inhibition", "cells": "Human amnion AV3 cells", "value": "0%"}
{"smiles": "CCOC(=O)c1ccc(OCCC2CCN(c3ccc(C)nn3)CC2)cc1", "method": "neutral red", "kind": "culture", "strain or isolate": "B632 (LDL receptor group 1B)", "species": "Rhinovirus", "measure": "EC50", "cells": "KB", "value": "0.008 µM"}
{"smiles": "CSc1ccccc1-c1cncc(N2CCN(c3ccccn3)CC2)n1", "kind": "target", "tested at": "10 µM", "target": "UL97 kinase", "species": "Cytomegalovirus", "measure": "inhibition", "value": ">15%"}
{"smiles": "O=C(Nc1ccc2cc(S(=O)(=O)[O-])cc(S(=O)(=O)[O-])c2c1)c1ccccc1", "method": "cytopathic effect", "kind": "culture", "tested at": "50 µg/mL", "species": "Herpes simplex virus", "measure": "inhibition", "cells": "Human conjunctiva cells", "value": "10%"}
{"smiles": "Fc1ccc(N2CCN(c3cncc(-c4ccc(C(F)(F)F)cc4)n3)CC2)c(F)c1", "kind": "target", "tested at": "1 µM", "target": "UL97 kinase", "species": "Cytomegalovirus", "measure": "inhibition", "value": "<50%"}
{"smiles": "O=S(=O)(O)CO", "method": "cytopathic effect", "kind": "culture", "tested at": "5 µg/mL", "species": "Rhinovirus", "measure": "inhibition", "cells": "Human embryonic lung cells", "value": "0%"}
{"smiles": "Oc1ccccc1N=Cc1ccc(F)cc1", "kind": "culture", "strain or isolate": "F-10", "species": "Cryptococcus neoformans", "measure": "MIC99", "value": "8 µg/mL"}
{"smiles": "O=S(=O)(O)c1ccc(N=Nc2c(O)ccc3cc(S(=O)(=O)O)ccc23)cc1", "method": "cytopathic effect", "kind": "culture", "tested at": "50 µg/mL", "species": "Herpes simplex virus", "measure": "inhibition", "cells": "Human conjunctiva cells", "value": "0%"}
{"smiles": "Fc1ccc(N2CCCCC2)c(NC(=S)c2ccncc2)c1", "method": "kinase activity", "kind": "host protein", "tested at": "10 µM", "target": "Erk1", "measure": "inhibition", "value": "-2.1%"}
{"smiles": "O=[N+]([O-])c1ccc(C=Nc2ccccc2O)cc1", "kind": "culture", "strain or isolate": "23/10993", "species": "Cryptococcus gattii", "measure": "MIC99", "value": "8 µg/mL"}
{"smiles": "c1ccc(N2CCN(c3cncc(-c4ccoc4)n3)CC2)cc1", "kind": "target", "target": "UL97 kinase", "species": "Cytomegalovirus", "measure": "IC50", "value": "<10 µM"}
{"smiles": "Oc1ccccc1C=Nc1ccccc1O", "kind": "culture", "strain or isolate": "WP", "species": "Cryptococcus neoformans", "measure": "MIC99", "value": "5.7 µg/mL"}
{"smiles": "O=S(=O)(O)c1ccc2cc(O)c(S(=O)(=O)O)cc2c1", "method": "cytopathic effect", "kind": "culture", "tested at": "50 µg/mL", "species": "Rhinovirus", "measure": "inhibition", "cells": "Human embryonic lung cells", "value": "70%"}
{"smiles": "Oc1ccccc1N=Cc1cccc(O)c1O", "kind": "culture", "strain or isolate": "96806", "species": "Cryptococcus neoformans", "measure": "MIC99", "value": "4 µg/mL"}
{"smiles": "CCC(CC)[C@H](NC(C)=O)[C@@H]1[C@H](O)[C@@H](C(=O)O)C[C@H]1N=C(N)N", "kind": "culture", "strain or isolate": "H1N1 A/Bayern/09/95", "species": "Influenza A virus", "measure": "EC50", "cells": "MDCK", "value": "1 µM"}
{"smiles": "COc1ccccc1N1CCN(c2cncc(-c3ccc(F)cc3)n2)CC1", "kind": "target", "tested at": "1 µM", "target": "UL97 kinase", "species": "Cytomegalovirus", "measure": "inhibition", "value": "<50%"}
{"smiles": "C=CCc1ccc(OC)c(OC)c1", "method": "turbidity", "kind": "culture", "strain or isolate": "2889", "species": "Candida albicans", "measure": "MIC90", "value": "350 µg/mL"}
{"smiles": "COc1cccc(N2CCN(c3cncc(-c4ccc5ccccc5c4)n3)CC2)c1", "kind": "target", "target": "UL97 kinase", "species": "Cytomegalovirus", "measure": "IC50", "value": "<10 µM"}
{"smiles": "O=S(=O)([O-])c1ccccc1S(=O)(=O)[O-]", "method": "cytopathic effect", "kind": "culture", "tested at": "5 µg/mL", "species": "Herpes simplex virus", "measure": "inhibition", "cells": "Human amnion AV3 cells", "value": "0%"}

The first 2 rows once more:

smiles,method,kind,tested at,strain or isolate,target,species,measure,cells,value
Cc1cc(-c2ccc(N=Nc3c(S(=O)(=O)O)cc4cc(S(=O)(=O)O)cc(N)c4c3O)c(C)c2)ccc1N=Nc1c(S(=O)(=O)O)cc2cc(S(=O)(=O)O)cc(N)c2c1O,cytopathic effect,culture,5 µg/mL,,,Herpes simplex virus,inhibition,Human amnion AV3 cells,0%
Oc1ccccc1N=Cc1ccc2c(c1)OCO2,broth dilution,culture,,LMM 820,,Cryptococcus neoformans,MIC,,4 µg/mL

Inhibition is in % at the dose shown (toxicity tests: loss of growth or viability). Conditions beyond the fields shown may differ between rows. Blank or dashed fields: not listed here. ECn: concentration that inhibits the pathogen or its effect by n%. MIC50, MIC90 and the like: level of inhibition, or share of isolates inhibited.